Compound potency records, mixed from different reports. Data source: NIAID ChemDB in PubChem.

Shared fields: growth or infection tests; agent: Cryptosporidium parvum; read-out: inhibition

An empty or dashed field is not shown. Rows are shuffled and stem from different studies. Percent inhibition refers to the dose given; in toxicity tests it is the harm to the cells.

SMILES	strain	cells	read by	dose	result
Cc1c(O)cccc1C(=O)N[C@@H](CSc1ccccc1)[C@H](O)CN1C[C@H]2CCCC[C@H]2C[C@H]1C(=O)NC(C)(C)C		HCT-8		2.5 µg/mL	15%
Nc1ncnc2c1ncn2[C@@H]1O[C@H](CO)[C@@H](O)[C@@H]1O				25 µg/mL	16%
CC(C)[C@H](NC(=O)[C@H](CCCN=C(N)N)NC(=O)N[C@@H](Cc1ccccc1)C(=O)O)C(=O)N[C@H](C=O)CCCN=C(N)N			cell count / microscopy	10 µg/mL	46.9%
NS(=O)(=O)c1cc([N+](=O)[O-])c(N(CCO)CCO)c([N+](=O)[O-])c1		MDCK cells	ELISA / luminescence	10 µM	0%
CC[C@@H]1O[C@@H]([C@]2(C)C[C@@H](C)[C@](O)([C@]3(C)CC[C@@H]([C@@H](O)[C@]4(O)O[C@H](C[C@@]5(O)O[C@@H]([C@@H](C)[C@H](O)C[C@@H]6O[C@H]([C@@H](C)C(=O)O)[C@@H](C)C[C@H]6C)CC[C@@H]5C)[C@@H](C)C[C@H]4C)O3)O2)CC[C@@]1(C)O		HCT-8		1 µM	100%
CC(=O)N[C@@H](CC(C)C)C(=O)N[C@@H](CC(C)C)C(=O)N[C@H](C=O)CCCN=C(N)N				3.125 µg/mL	41.3%
Nc1ccc(S(=O)(=O)Nc2cnc3ccccc3n2)cc1	Human isolate	L929		20 µg/mL	83.15%
CC[C@@H](C(=O)[C@@H](C)[C@@H](O)[C@H](C)CCc1ccc(C)c(O)c1C(=O)O)[C@H]1O[C@](CC)([C@H]2CC[C@](O)(CC)[C@H](C)O2)C[C@@H]1C		HCT-8		1 µM	100%
Nc1ccn([C@@H]2O[C@H](CO)[C@@H](O)[C@@H]2O)c(=O)n1				50 µg/mL	81%
CCCc1ncc(C[n+]2ccccc2C)c(N)n1	Calf isolate	L929		4 µg/mL	39.22%
CCN(CC)CCCC(C)Nc1ccnc2cc(Cl)ccc12		HCT-8		1 µM	0%
O=c1[nH]c(=O)n([C@H]2C[C@H](O)[C@@H](CO)O2)cc1I				10 µg/mL	84%
CCN(CC)CCCC(C)Nc1ccnc2cc(Cl)ccc12	Calf isolate	L929		4 µg/mL	31.22%
Nc1nc(=O)n([C@H]2C[C@H](O)[C@@H](CO)O2)cc1I				25 µg/mL	92%
CCc1nc(N)nc(N)c1-c1ccc(Cl)cc1	Calf isolate	L929		0.032 µg/mL	14.05%
Cc1cn([C@@H]2O[C@H](CO)[C@@H](O)[C@@H]2O)c(=O)[nH]c1=O				25 µg/mL	68%
NC[C@@H]1O[C@H](O[C@H]2[C@@H](O)[C@H](O[C@@H]3[C@@H](O)[C@H](N)C[C@H](N)[C@H]3O[C@H]3O[C@H](CO)[C@@H](O)[C@H](O)[C@H]3N)O[C@@H]2CO)[C@H](N)[C@@H](O)[C@@H]1O		HT29.74		100 µg/mL	62%
O=C(O)P(=O)(O)O				50 µg/mL	3%
CC[C@H]1OC(=O)[C@H](C)[C@@H](O[C@H]2C[C@@](C)(OC)[C@@H](O)[C@H](C)O2)[C@H](C)[C@@H](O[C@@H]2O[C@H](C)C[C@H](N(C)C)[C@H]2O)[C@](C)(OC)C[C@@H](C)C(=O)[C@H](C)[C@@H](O)[C@]1(C)O			cell count	5 µM	10.3%
Cc1cc(-n2c(=O)[nH]c(=O)n(C)c2=O)ccc1Oc1ccc(SC(F)(F)F)cc1		HCT-8		1 µM	0%
CC(C)c1nc(CN(C)C(=O)N[C@H](C(=O)N[C@@H](Cc2ccccc2)C[C@H](O)[C@H](Cc2ccccc2)NC(=O)OCc2cncs2)C(C)C)cs1		HCT-8		2.5 µg/mL	<5%
CO[C@H]1/C=C/O[C@@]2(C)Oc3c(C)c(O)c4c(O)c(c(/C=N/N5CCN(C)CC5)c(O)c4c3C2=O)NC(=O)/C(C)=C\C=C\[C@H](C)[C@H](O)[C@@H](C)[C@@H](O)[C@@H](C)[C@H](OC(C)=O)[C@@H]1C			cell count	5 µM	7.9%
CC(C)N=C(N)/N=C(\N)Nc1ccc(Cl)cc1	Calf isolate	L929		0.032 µg/mL	-6.11%

The last 3 rows once more:

SMILES | strain | cells | read by | dose | result
CC(C)c1nc(CN(C)C(=O)N[C@H](C(=O)N[C@@H](Cc2ccccc2)C[C@H](O)[C@H](Cc2ccccc2)NC(=O)OCc2cncs2)C(C)C)cs1 |  | HCT-8 |  | 2.5 µg/mL | <5%
CO[C@H]1/C=C/O[C@@]2(C)Oc3c(C)c(O)c4c(O)c(c(/C=N/N5CCN(C)CC5)c(O)c4c3C2=O)NC(=O)/C(C)=C\C=C\[C@H](C)[C@H](O)[C@@H](C)[C@@H](O)[C@@H](C)[C@H](OC(C)=O)[C@@H]1C |  |  | cell count | 5 µM | 7.9%
CC(C)N=C(N)/N=C(\N)Nc1ccc(Cl)cc1 | Calf isolate | L929 |  | 0.032 µg/mL | -6.11%